This assay has as its target X-31 HA0 R329Q mutant, foldon and His tag removed with trypsin (influenza A virus X-31). Nature of the assay: SEC.

Consider “X-31 HA0 R329Q mutant, foldon and His tag removed with trypsin (natural protein)”, for which the stoichiometry N (commonly a count of units in the complex or per binding partner) was determined as 3.

(Values after article PMC9388137, “Reversible structural changes in the influenza hemagglutinin precursor at membrane fusion pH” (2022).)
